Test results taken from publication PMC9115881, “Penicillin Derivatives Inhibit the SARS-CoV-2 Main Protease by Reaction with Its Nucleophilic Cysteine” (Journal of Medicinal Chemistry, 2022).

Target: SARS-CoV-2 M^pro (Severe acute respiratory syndrome coronavirus 2, UniProt P0DTD1)
Assay: SPE-MS M^pro inhibition assay, 37mer peptide substrate
Format: biochemical
Conditions: Table 4; M^pro 0.15 μM, 37mer substrate 2.0 μM; mean ± SD, n ≥ 2

Structure (SMILES)	IC50 [µM]
CC1(C)S[C@H]2N(C(=O)C2(Br)Br)[C@H]1C(=O)OCc1ccc([N+](=O)[O-])cc1	> 50
CC1(C)S[C@H]2N(C(=O)C2(Br)Br)[C@H]1C(=O)O	> 50
